Tested on: A549 cells
Experiment: Mammalian cell toxicity (MTT assay) and selectivity index
Format: cell-based, Human
Conditions: for C. duobushaemulonii (SI) / C. haemulonii (SI) / C. haemulonii var. vulnera (SI): CC50/GM-MIC; for Overall mean (SI): mean of the SI values against the three species, ratio CC50 / MIC
Description: Three clinical isolates of each species that form the C. haemulonii complex were used in this study: C. haemulonii (LIPCh4 from finger nail, LIPCh7 from toe nail, and LIPCh12 from blood), C. duobushaemulonii (LIPCh1 from finger nail, LIPCh6 from toe nail, and LIPCh8 from blood) and C. haemulonii var. vulnera (LIPCh5 from toe nail, LIPCh9 from urine, and LIPCh11 from blood) (Ramos et al., [2015]). The fungal isolates were identified by the automatized system VITEK® 2 and then characterized by ITS1-5.8S-ITS2 gene sequencing (Ramos et al., [2015]). Fungal cells were cultured in Sabouraud-dextrose medium under constant agitation (130 rpm) for 48 h at 37°C. Human lung adenocarcinoma A549 cells were maintained in culture flasks containing DMEM medium supplemented with 10% fetal bovine serum at 37°C in an atmosphere of 5% CO2.
The cytotoxicity was evaluated using the MTT [3-(4,5-dimethylthiazol-2-yl)-2,5-diphenyl tetrazolium bromide] (Sigma-Aldrich) assay (Mosmann, [1983]). A549 cells (10^4) were seeded into tissue culture plates (TPP, Switzerland) and cultured for 24 h at 37°C in a 5% CO2 in order to obtain cellular confluence. The wells were then washed twice with DMEM to remove non-adherent cells and the test compounds were added (in concentrations ranging from 0.0313 to 512 μg/mL) to plates containing DMEM, followed by a 48 h incubation period under the same conditions mentioned above. The cellular viability was evaluated by adding MTT to each well and incubating the plates in the dark for 3 h, allowing the viable cells containing active mitochondrial dehydrogenase enzymes to metabolize MTT-tetrazolium salt into purple formazan. The formazan crystals were then dissolved in DMSO (100 μL) and the absorbance (450 nm) measured using a Thermomax Molecular Device microplate reader. The concentration capable of reducing cellular viability by 50% (CC50) was calculated, and the selectivity index (SI) determined using the following equation: A549 CC50/C. haemulonii complex GM-MIC.

| Compound | C. duobushaemulonii (SI) | C. haemulonii (SI) | C. haemulonii var. vulnera (SI) | Overall mean (SI) |
| --- | --- | --- | --- | --- |
| O.O.O.O.O.O.O=C([O-])CCCCCCC(=O)[O-].O=C([O-])CCCCCCC(=O)[O-].O=C([O-])CCCCCCC(=O)[O-].O=C([O-])CCCCCCC(=O)[O-].[Mn+2].[Mn+2].[Mn+2].[Mn+2].c1cnc2c(c1)ccc1cccnc12.c1cnc2c(c1)ccc1cccnc12.c1cnc2c(c1)ccc1cccnc12.c1cnc2c(c1)ccc1cccnc12.c1cnc2c(c1)ccc1cccnc12.c1cnc2c(c1)ccc1cccnc12.c1cnc2c(c1)ccc1cccnc12.c1cnc2c(c1)ccc1cccnc12 [compound 13, [Mn2(oda)(phen)4(H2O)2][Mn2(oda)(phen)4(oda)2].4H2O] | >203.19 | >256 | >256 | >236.40 |
| O.O.O.O=C([O-])CCCCCCCCCC(=O)[O-].[Ag+].[Ag+].c1cnc2c(c1)ccc1cccnc12.c1cnc2c(c1)ccc1cccnc12.c1cnc2c(c1)ccc1cccnc12 [compound 18, [Ag2(phen)3(udda)].3H2O] | 27.26 | 86.55 | 54.52 | 56.11 |
| O.O.O.O.O.O=C([O-])c1ccc(C(=O)[O-])cc1.[Mn+2].c1cnc2c(c1)ccc1cccnc12.c1cnc2c(c1)ccc1cccnc12 [compound 12, [Mn(tereph)(phen)2].5H2O] | 62.99 | 62.99 | 62.99 | 62.99 |
| CCO.O=C([O-])COCCOCCOCC(=O)[O-].[Ag+].[Ag+].c1cnc2c(c1)ccc1cccnc12.c1cnc2c(c1)ccc1cccnc12.c1cnc2c(c1)ccc1cccnc12.c1cnc2c(c1)ccc1cccnc12 [compound 16, [Ag2(3,6,9-tdda)(phen)4].EtOH] | 1.75 | 2.21 | 2.78 | 2.25 |
| O=C1C(=O)c2cccnc2-c2ncccc21.O=C1C(=O)c2cccnc2-c2ncccc21.[Ag+].[O-][Cl+3]([O-])([O-])[O-] [compound 15, [Ag(phendione)2]ClO4] | 1.88 | 3.76 | 2.98 | 2.87 |
| [Ag+].[O-][Cl+3]([O-])([O-])[O-].c1cnc2c(c1)ccc1cccnc12.c1cnc2c(c1)ccc1cccnc12 [compound 17, [Ag(phen)2]ClO4] | 1.30 | 2.07 | 3.29 | 2.22 |
| O.O.O.O.O=C1C(=O)c2cccnc2-c2ncccc21.O=C1C(=O)c2cccnc2-c2ncccc21.O=C1C(=O)c2cccnc2-c2ncccc21.[Cu+2].[O-][Cl+3]([O-])([O-])[O-].[O-][Cl+3]([O-])([O-])[O-] [compound 6, [Cu(phendione)3](ClO4)2.4H2O] | 0.09 | 0.04 | 0.11 | 0.08 |
| CCO.CCO.O.O.O.O=C([O-])c1ccccc1C(=O)[O-].[Cu+2].c1cnc2c(c1)ccc1cccnc12.c1cnc2c(c1)ccc1cccnc12 [compound 2, [Cu(ph)(phen)2].3H2O.2EtOH] | <0.06 | <0.06 | <0.06 | <0.06 |
| O.O.O=C([O-])c1ccccc1C(=O)[O-].[Cu+2].c1cnc2c(c1)ccc1cccnc12 [compound 1, [Cu(ph)(phen)(H2O)2]] | <0.02 | <0.02 | <0.02 | <0.02 |
| {[Mn(3,6,9-tdda)(phen)2].3H2O.EtOH}n [compound 14] | 82.42 | 130.84 | 130.84 | 114.70 |
| O.O.O=C([O-])c1ccccc1C(=O)[O-].[Mn+2].c1cnc2c(c1)ccc1cccnc12 [compound 8, [Mn(ph)(phen)(H2O)2]] | 46.53 | 46.53 | 58.63 | 50.56 |
| CCO.O=C([O-])CCCCCCC(=O)[O-].[Cu+2].[Cu+2].[O-][Cl+3]([O-])([O-])[O-].[O-][Cl+3]([O-])([O-])[O-].c1cnc2c(c1)ccc1cccnc12.c1cnc2c(c1)ccc1cccnc12.c1cnc2c(c1)ccc1cccnc12.c1cnc2c(c1)ccc1cccnc12 [compound 5, [Cu2(oda)(phen)4](ClO4)2.2.76H2O.EtOH] | 0.12 | 0.10 | 0.10 | 0.11 |
| O=C1C(=O)c2cccnc2-c2ncccc21 [phendione, 1,10-phenanthroline-5,6-dione, reference compound] | 0.80 | 1.01 | 1.01 | 0.94 |
| [Cl][Cu][Cl] [CuCl2, reference compound] | >3.87 | >3.87 | >3.87 | >3.87 |
| CCO.CCO.O=C([O-])c1ccc(C(=O)[O-])cc1.O=C([O-])c1ccc(C(=O)[O-])cc1.[Cu+2].[Cu+2].c1cnc2c(c1)ccc1cccnc12.c1cnc2c(c1)ccc1cccnc12.c1cnc2c(c1)ccc1cccnc12.c1cnc2c(c1)ccc1cccnc12 [compound 4, [{Cu(phen)2}2(terph)](terph).13.5H2O.2EtOH] | <0.12 | <0.12 | 0.12 | – |
| {[Cu(3,6,9-tdda)(phen)2].3H2O.EtOH}n [compound 7] | 0.53 | 0.33 | 0.42 | 0.43 |
| O.O.O.O.O.O=C([O-])c1ccccc1C(=O)[O-].[Mn+2].c1cnc2c(c1)ccc1cccnc12.c1cnc2c(c1)ccc1cccnc12 [compound 9, [Mn(ph)(phen)2(H2O)].4H2O] | 129.67 | 129.67 | 129.67 | 129.67 |
| c1cnc2c(c1)ccc1cccnc12 [phen, 1,10-phenanthroline] | 4.30 | 4.30 | 5.42 | 4.67 |

From article PMC5504357, “Antifungal Potential of Copper(II), Manganese(II) and Silver(I) 1,10-Phenanthroline Chelates Against Multidrug-Resistant Fungal Species Forming the Candida haemulonii Complex: Impact on the Planktonic and Biofilm Lifestyles” (Frontiers in Microbiology, 2017)
